Results as given in publication doi:10.1101/2024.06.06.597810 (bioRxiv, 2024).

B1: S2P6 UCA VH Y32Q Fab (Fab, V domains shown)
VH: QVQLVQSGAEVKKPGASVKVSCKASGYTFTSQYMHWVRQAPGQGLEWMGIINPSGGSTSYAQKFQGRVTMTRDTSTSTVYMELSSLRSEDTAVYYCARGSPKGAFDYWGQGTLVTVSS
VL: not shown
B2: S2P6 UCA VH S56H Fab (Fab, V domains shown)
VH: QVQLVQSGAEVKKPGASVKVSCKASGYTFTSYYMHWVRQAPGQGLEWMGIINPSGGHTSYAQKFQGRVTMTRDTSTSTVYMELSSLRSEDTAVYYCARGSPKGAFDYWGQGTLVTVSS
VL: not shown
B3: S2P6 UCA VH M48I/S56H double mutant Fab (Fab, V domains shown)
VH: QVQLVQSGAEVKKPGASVKVSCKASGYTFTSYYMHWVRQAPGQGLEWIGIINPSGGHTSYAQKFQGRVTMTRDTSTSTVYMELSSLRSEDTAVYYCARGSPKGAFDYWGQGTLVTVSS
VL: not shown
notes: source: Expi293F, co-transfected, purified (IgG-CH1-XL beads)
B4: S2P6 UCA VH Y32Q/M48I double mutant Fab (Fab, V domains shown)
VH: QVQLVQSGAEVKKPGASVKVSCKASGYTFTSQYMHWVRQAPGQGLEWIGIINPSGGSTSYAQKFQGRVTMTRDTSTSTVYMELSSLRSEDTAVYYCARGSPKGAFDYWGQGTLVTVSS
VL: not shown
B5: S2P6 UCA VH M48I Fab (Fab, V domains shown)
VH: QVQLVQSGAEVKKPGASVKVSCKASGYTFTSYYMHWVRQAPGQGLEWIGIINPSGGSTSYAQKFQGRVTMTRDTSTSTVYMELSSLRSEDTAVYYCARGSPKGAFDYWGQGTLVTVSS
VL: not shown
B6: S2P6 UCA VH Y32Q/M48I/S56H triple mutant Fab (Fab, V domains shown)
VH: QVQLVQSGAEVKKPGASVKVSCKASGYTFTSQYMHWVRQAPGQGLEWIGIINPSGGHTSYAQKFQGRVTMTRDTSTSTVYMELSSLRSEDTAVYYCARGSPKGAFDYWGQGTLVTVSS
VL: not shown
notes: as for B3

Target: T1, Biotin-labeled SARS-CoV-2 stem helix peptide (SARS-CoV-2 (NC_045512), UniProt P0DTC2, biotin (position not given))
T1 chain: DSFKEELDKYFKNH
Conditions: both partners purified
B1: binds. B2: binds. B3: binds. B4: binds. B5: binds. B6: binds.
